A mixed list of measured activities; the numbers were collected in NIAID ChemDB.

Common to all: target-level tests

Inhibition is in % at the dose shown (toxicity tests: loss of growth or viability).

SMILES | strain or isolate | changes | protein | read by | agent | endpoint | dose | value
CC(Br)(C(=O)O)P(=O)(O)O | - | - | DNA polymerase | - | Herpes simplex virus 1 | inhibition | 100 µM | 0%
CCc1c[nH]c(=O)[nH]c1=O | RH | - | Uracil phosphoribosyltransferase | - | Toxoplasma gondii | IC50 | - | >2000 µM
Cc1cn([C@@H]2O[C@H](CO[Si](C)(C)C(C)(C)C)[C@@]3(OS(=O)(=O)C=C3N)[C@H]2O[Si](C)(C)C(C)(C)C)c(=O)[nH]c1=O | - | RT-P95A | Reverse transcriptase | nucleotide incorporation / radiometric | HIV | IC50 | - | 0.9 µM
CC(C)C(=O)N1C[C@H](CN2CCC(c3ccccc3)CC2)[C@@H](c2ccccc2)C1 | - | CCR5-E283A | CCR5 | radiometric | - | fold resistance | - | >83.3
O=C(O)CP(=O)(O)O | - | - | DNA polymerase | - | Herpes simplex virus 2 | IC50 | - | 1.2 µM
c1cncnc1 | RH | - | Uracil phosphoribosyltransferase | - | Toxoplasma gondii | inhibition | 2000 µM | <5%
O=P(O)(O)C(Cl)P(=O)(O)O | - | - | DNA polymerase | - | Epstein-Barr virus | IC50 | - | >100 µM
CN(CC(C)(CCN1CCC(N(CCO)C(=O)OCc2ccc([N+](=O)[O-])cc2)CC1)c1ccsc1)S(=O)(=O)c1ccccc1 | - | CCR5-D276A | CCR5 | radiometric | - | IC50 | - | 0.004 µM
N#[N+]c1c[nH]c(=O)[nH]c1=O | RH | - | Uracil phosphoribosyltransferase | - | Toxoplasma gondii | Ki | - | 1300 µM
O=P(O)(O)C(F)(Cl)P(=O)(O)O | - | - | DNA polymerase | - | Epstein-Barr virus | IC50 | - | >100 µM
CO[P@](=O)(c1cc(C)cc(/C=C/C#N)c1)c1c(C(N)=O)[nH]c2ccc(Cl)cc12 | - | Y188L | Reverse transcriptase | - | HIV | IC50 | - | 1.15 µM
O=C(Nc1nnc(NCCc2cccs2)s1)c1ccc2c(c1)C(=O)OC2=O | - | - | Polymerase | - | Human cytomegalovirus | IC50 | - | <25 µM
CC(C)N(C(=O)c1cc(-c2ccccc2)sc1C(=O)O)c1ccc(Cl)cc1Cl | - | - | NS3 ATPase | - | Hepatitis C virus | IC50 | - | <5 µM
CC[C@H]1C(=O)Nc2ccc(F)cc2N1C(=O)OC(C)C | - | RT-N137T | Reverse transcriptase | nucleotide incorporation / radiometric | HIV | fold resistance | - | 2.7
Cc1c[nH]c(=S)[nH]c1=O | RH | - | Uracil phosphoribosyltransferase | - | Toxoplasma gondii | IC50 | - | >2000 µM
O=C(O)c1sc(-c2ccccc2)cc1NS(=O)(=O)c1ccc(C(F)(F)F)cc1 | - | - | NS3 ATPase | - | Hepatitis C virus | IC50 | - | <5 µM
Cc1ccc(C(=O)Nc2nnc(NCc3cccc4ccccc34)s2)cc1 | - | - | Polymerase | - | Human cytomegalovirus | IC50 | - | >25 µM
Cc1ccc(C(=O)N(C)c2cc(-c3ccccc3)sc2C(=O)O)c(C)c1 | - | - | NS3 ATPase | - | Hepatitis C virus | IC50 | - | <5 µM
NC1C(=O)NC(=O)NC1=O | RH | - | Uracil phosphoribosyltransferase | - | Toxoplasma gondii | inhibition | 2000 µM | <5%
O=C(Nc1nnc(NC2CCN(Cc3ccccc3)CC2)s1)c1ccc2c(c1)C(=O)OC2=O | - | - | Polymerase | - | Human cytomegalovirus | IC50 | - | <25 µM
O=C(c1ccccc1)N1C[C@H](CN2CCC(c3ccccc3)CC2)[C@@H](c2ccccc2)C1 | - | CCR5-Y251A | CCR5 | radiometric | - | IC50 | - | 0.11 µM
CCOc1ccc2ccccc2c1C(=O)Nc1nnc(NCCC(c2ccccc2)c2ccccc2)s1 | - | - | Polymerase | - | Human cytomegalovirus | IC50 | - | <25 µM
Cc1cn([C@H]2C=C[C@@H](COP(=O)(O)OP(=O)(O)OP(=O)(O)O)O2)c(=O)[nH]c1=O | - | RT-N137E | Reverse transcriptase | nucleotide incorporation / radiometric | HIV | IC50 | - | 0.04 µM
O=C(Nc1nnc(NCCNc2ccccc2)s1)c1ccc([N+](=O)[O-])o1 | - | - | Polymerase | - | Human cytomegalovirus | IC50 | - | >25 µM
Cc1cccc(-c2cc(N(C(=O)c3ccc(Cl)cc3Cl)C(C)C)c(C(=O)O)s2)c1 | - | - | NS3 ATPase | - | Hepatitis C virus | IC50 | - | <5 µM
O=C(Nc1nnc(NCCN2CCOCC2)s1)c1cccc([N+](=O)[O-])c1 | - | - | Polymerase | - | Human cytomegalovirus | IC50 | - | >25 µM
O=c1[nH]cc(O)c(=O)[nH]1 | RH | - | Uracil phosphoribosyltransferase | - | Toxoplasma gondii | inhibition | 2000 µM | <10%
O=C(Nc1nnc(NCCCNC2CCCCC2)s1)c1ccc([N+](=O)[O-])o1 | - | - | Polymerase | - | Human cytomegalovirus | IC50 | - | <25 µM
O=C(O)C(Br)P(=O)(O)O | - | - | DNA polymerase | - | Herpes simplex virus 1 | inhibition | 100 µM | 87%

For reference, 4 entries again:

O=C(c1ccccc1)N1C[C@H](CN2CCC(c3ccccc3)CC2)[C@@H](c2ccccc2)C1 ; changes: CCR5-Y251A ; protein: CCR5 ; read by: radiometric ; endpoint: IC50 ; value: 0.11 µM
O=C(Nc1nnc(NC2CCN(Cc3ccccc3)CC2)s1)c1ccc2c(c1)C(=O)OC2=O ; protein: Polymerase ; agent: Human cytomegalovirus ; endpoint: IC50 ; value: <25 µM
NC1C(=O)NC(=O)NC1=O ; strain or isolate: RH ; protein: Uracil phosphoribosyltransferase ; agent: Toxoplasma gondii ; endpoint: inhibition ; dose: 2000 µM ; value: <5%
O=C(Nc1nnc(NCCNc2ccccc2)s1)c1ccc([N+](=O)[O-])o1 ; protein: Polymerase ; agent: Human cytomegalovirus ; endpoint: IC50 ; value: >25 µM

Blank or dashed fields: not listed here. Neighbouring rows are from separate reports. ICn is the concentration giving n% inhibition. Fold resistance: result on the changed form divided by that on wild type.